Pooled drug test results. Numbers come from NIAID ChemDB, via PubChem.

Common to all: whole-cell or culture tests; agent: Mycobacterium avium complex

Blank or dashed fields: not listed here. Lines come from different laboratories, so protocols vary. A number after MIC or MFC names an inhibition level or a share of isolates. ECn: concentration that inhibits the pathogen or its effect by n%. Inhibition is in % at the dose shown (toxicity tests: loss of growth or viability).

CCCCCCCCC(=O)O[C@H]1[C@H](C)OC(O[C@H]2[C@H](C)[C@@H](O[C@@H]3O[C@H](C)C[C@H](N(C)C)[C@H]3O)C(C)(O)C[C@@H](C)/C(=N\OCCCOc3ccccc3)[C@H](C)[C@@H](O)[C@](C)(O)[C@@H](CC)OC(=O)[C@@H]2C)C[C@@]1(C)OC ; strain or isolate: 20092 (clarithromycin-resistant) ; measure: MIC ; value: 6.25 µg/mL
CCc1nc(N)nc(N)c1-c1ccc(Cl)cc1 ; strain or isolate: DW17 ; measure: MIC ; value: 32 µg/mL
CC[C@H]1OC(=O)[C@H](C)[C@@H](O[C@H]2C[C@@](C)(OC)[C@@H](O)[C@H](C)O2)[C@H](C)[C@@H](O[C@@H]2O[C@H](C)C[C@H](N(C)C)[C@H]2O)[C@](C)(OC)C[C@@H](C)C(=O)[C@H](C)[C@@H](O)[C@]1(C)O ; strain or isolate: 25 isolates ; measure: MBC90 ; value: >8 µg/mL
C[C@@H]1CN(c2c(F)c(N)c3c(=O)c(C(=O)O)cn(C4CC4)c3c2F)C[C@H](C)N1 ; strain or isolate: N-981 (HIV+) ; measure: MIC ; value: 0.5 µg/mL
CC[C@H]1OC(=O)[C@H](C)[C@@H](O[C@H]2C[C@@](C)(OC)[C@@H](O)[C@H](C)O2)[C@H](C)[C@@H](O[C@@H]2O[C@H](C)C[C@H](N(C)C)[C@H]2O)[C@](C)(O)C[C@@H](C)CN(C)[C@H](C)[C@@H](O)[C@]1(C)O ; strain or isolate: 25 isolates ; measure: MBC90 ; value: >8 µg/mL
N[C@@H]1CN(c2c(F)cc3c(=O)c(C(=O)O)cn([C@@H]4C[C@@H]4F)c3c2Cl)CC12CC2 ; strain or isolate: 101 ; cell line: Macrophages ; measure: inhibition ; tested at: 10 µg/mL ; value: 100%
CCc1cc(C(N)=S)ccn1 ; strain or isolate: 97 strains ; read by: agar ; measure: inhibition ; tested at: 10 µg/mL ; value: 37%
CCCCCCO/N=C1\[C@H](C)CC(C)(O)[C@H](O[C@@H]2O[C@H](C)C[C@H](N(C)C)[C@H]2O)[C@@H](C)[C@H](O[C@H]2C[C@@](C)(OC)[C@@H](OC(C)=O)[C@H](C)O2)[C@@H](C)C(=O)O[C@H](CC)[C@@](C)(O)[C@H](O)[C@H]1C ; strain or isolate: 20096 (clarithromycin-resistant) ; measure: MIC ; value: 3.13 µg/mL
CC(C)N=C(N)/N=C(\N)NOCCCOc1cc(Cl)c(Cl)cc1Cl ; strain or isolate: 4304-4 ; measure: MIC ; value: 32 µg/mL
C[C@@H]1CN(c2c(F)c(N)c3c(=O)c(C(=O)O)cn(C4CC4)c3c2F)C[C@H](C)N1 ; strain or isolate: CIPT 140310030 ; measure: MBC ; value: 3 µg/mL
Clc1ccc(Nc2cc3nc4ccccc4n(-c4ccc(Cl)cc4)c-3cc2=NCCCN2CCCC2)cc1 ; strain or isolate: 10 strains (HIV+) ; measure: MIC90 ; value: 2 µg/mL
CC[C@H]1OC(=O)[C@H](C)[C@@H](O[C@H]2C[C@@](C)(OC)[C@@H](OC(C)=O)[C@H](C)O2)[C@H](C)[C@@H](O[C@@H]2O[C@H](C)C[C@H](N(C)C)[C@H]2OC(=O)NNCCOc2ccccc2)C(C)(O)C[C@@H](C)/C(=N\OCCCC2CCCCC2)[C@H](C)[C@@H](O)[C@]1(C)O ; strain or isolate: 20092 (clarithromycin-resistant) ; measure: MIC ; value: 3.13 µg/mL
CO[C@H]1/C=C/O[C@@]2(C)Oc3c(C)c(O)c4c(=O)c(c5oc6cc(N7CCN(CC(C)C)CC7)cc(=O)c6nc5c4c3=C2O)NC(=O)/C(C)=C\C=C\[C@H](C)[C@H](O)[C@@H](C)[C@@H](O)[C@@H](C)[C@H](OC(C)=O)[C@@H]1C ; strain or isolate: N-265 (HIV-) ; measure: MIC ; value: 0.05 µg/mL
CCCC(=O)O[C@H]1[C@H](C)[C@@H](O[C@@H]2O[C@H](C)C[C@H](N(C)C)[C@H]2O)C(C)(O)C[C@@H](C)/C(=N\OCCCOc2ccccc2)[C@H](C)[C@@H](O)[C@](C)(O)[C@@H](CC)OC(=O)[C@@H]1C ; strain or isolate: 20039 (clarithromycin-susceptible) ; measure: MIC ; value: 6.25 µg/mL
CO[C@H]1/C=C/O[C@@]2(C)Oc3c(C)c(O)c4c(O)c(c5c(c4c3C2=O)NC2(CCN(CC(C)C)CC2)N=5)=NC(=O)/C(C)=C\C=C\[C@H](C)[C@H](O)[C@@H](C)[C@@H](O)[C@@H](C)[C@H](OC(C)=O)[C@@H]1C ; strain or isolate: N-325 (HIV-) ; measure: MIC ; value: 1 µg/mL
CC[C@H]1OC(=O)[C@H](C)[C@@H](OC2C[C@@](C)(OC)[C@@H](OC(=O)CC3CCCCC3)[C@H](C)O2)[C@H](C)[C@@H](O[C@@H]2O[C@H](C)C[C@H](N(C)C)[C@H]2O)C(C)(O)C[C@@H](C)/C(=N\OCCCOc2ccccc2)[C@H](C)[C@@H](O)[C@]1(C)O ; strain or isolate: 20096 (clarithromycin-resistant) ; measure: MIC ; value: 1.56 µg/mL
CO[C@H]1/C=C/O[C@@]2(C)Oc3c(C)c(O)c4c(O)c(c5c(c4c3C2=O)NC2(CCN(CC(C)C)CC2)N=5)=NC(=O)/C(C)=C\C=C\[C@H](C)[C@H](O)[C@@H](C)[C@@H](O)[C@@H](C)[C@H](OC(C)=O)[C@@H]1C ; strain or isolate: 1317-2 ; measure: MBC ; value: 32 µg/mL
CC1(C)N=C(N)N=C(N)N1OCCCOc1cc(Cl)c(Cl)cc1Cl ; strain or isolate: 101 ; measure: MIC ; value: 1 µg/mL
CC1COc2c(N3CCN(C)CC3)c(F)cc3c(=O)c(C(=O)O)cn1c23 ; strain or isolate: 25 isolates ; measure: MIC50 ; value: >8 µg/mL
CCN=c1cc2n(-c3ccc(Cl)cc3)c3ccccc3nc-2cc1Nc1ccc(Cl)cc1 ; strain or isolate: 453 ; measure: MBC ; value: 64 µg/mL
C[C@@H]1CN(c2c(F)c(N)c3c(=O)c(C(=O)O)cn(C4CC4)c3c2F)C[C@H](C)N1 ; strain or isolate: 25 isolates ; measure: MBC90 ; value: 8 µg/mL
CC[C@H]1OC(=O)[C@H](C)[C@@H](O[C@H]2C[C@@](C)(OC)[C@@H](OC(C)=O)[C@H](C)O2)[C@H](C)[C@@H](O[C@@H]2O[C@H](C)C[C@H](N(C)C)[C@H]2OC(=O)NNCc2cccnc2)C(C)(O)C[C@@H](C)/C(=N\OCCCC2CCCCC2)[C@H](C)[C@@H](O)[C@]1(C)O ; strain or isolate: 20039 (clarithromycin-susceptible) ; measure: MIC ; value: 1.56 µg/mL
N[C@@H]1CONC1=O ; strain or isolate: 97 strains ; read by: agar ; measure: EC50 ; value: >30 µg/mL
CC[C@H]1OC(=O)[C@H](C)[C@@H](O[C@H]2C[C@@](C)(OC)[C@@H](O)[C@H](C)O2)[C@H](C)[C@@H](O[C@@H]2O[C@H](C)C[C@H](N(C)C)[C@H]2O)[C@](C)(O)C[C@@H](C)C(=O)[C@H](C)[C@@H](O)[C@]1(C)O ; strain or isolate: 25 isolates ; measure: MIC50 ; value: >8 µg/mL

A second listing of 2 rows from above:

SMILES,strain or isolate,cell line,read by,measure,tested at,value
CCCCCCO/N=C1\[C@H](C)CC(C)(O)[C@H](O[C@@H]2O[C@H](C)C[C@H](N(C)C)[C@H]2O)[C@@H](C)[C@H](O[C@H]2C[C@@](C)(OC)[C@@H](OC(C)=O)[C@H](C)O2)[C@@H](C)C(=O)O[C@H](CC)[C@@](C)(O)[C@H](O)[C@H]1C,20096 (clarithromycin-resistant),-,-,MIC,-,3.13 µg/mL
CCc1nc(N)nc(N)c1-c1ccc(Cl)cc1,DW17,-,-,MIC,-,32 µg/mL